{"source": "PubChem BioAssay AID504761 (Drosophila RNAi Screening Center, 2011)", "assay": "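Genome-wide fly cell screen for genes dengue virus requires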 (primary screen)", "cell system": "D.Mel-2 cells from Drosophila", "reagent": "long dsRNA against Drosophila genes", "treatment": "infection with dengue virus type 2; dose and infection time not stated", "measured": "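Per well on two replicate plates, imaging gave the percent of cells positive for viral envelope protein, ranked by infection, and a nuclear count of cells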", "reading the numbers": "infection score: higher = more virus-infected cells", "active means": "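Very low infection ranking in both replicate wells (chance probability at most 0.065), then a retest showing infection dropped 1.5-fold or more at p below 0.05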", "meaning of the calls": "active = confirmed: knock-down lowers infection; inactive = not picked or not confirmed", "note": "The screen tested about 22,000 reagents; shown is an unselected part of those with a known target gene and a result. In the full data, 116 (0.52%) were called active. 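Calls depend on retest data that are not deposited; infection was ranked per plate without normalising between plates; the unit of the infection score is not given.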 Not all columns of the deposit are shown. Reagent sequences are not shown. Not stated in the record: the amount of reagent, the time to read-out."}
{"target gene":"CG12164 (GeneID 35651)","DRSC id":"DRSC06115","infection score, replicate 1":4.5,"outcome":"inactive"}
{"target gene":"CG12164 (GeneID 35651)","DRSC id":"DRSC21777","infection score, replicate 1":7.13,"outcome":"inactive"}
{"target gene":"CG12164 (GeneID 35651)","DRSC id":"DRSC25698","infection score, replicate 1":9.8,"outcome":"inactive"}
{"target gene":"Trim9 (GeneID 34453)","DRSC id":"DRSC02242","infection score, replicate 1":16.1,"outcome":"inactive"}
{"target gene":"Trim9 (GeneID 34453)","DRSC id":"DRSC28679","infection score, replicate 1":11.5,"outcome":"inactive"}
{"target gene":"PICK1 (GeneID 34677)","DRSC id":"DRSC02936","infection score, replicate 1":8.1,"outcome":"inactive"}
{"target gene":"Naus (GeneID 37076)","DRSC id":"DRSC06011","infection score, replicate 1":8.65,"outcome":"inactive"}
{"target gene":"Naus (GeneID 37076)","DRSC id":"DRSC06469","infection score, replicate 1":7.82,"outcome":"inactive"}
{"target gene":"Naus (GeneID 37076)","DRSC id":"DRSC23606","infection score, replicate 1":3.64,"outcome":"inactive"}
{"target gene":"CG9981 (GeneID 32609)","DRSC id":"DRSC20225","infection score, replicate 1":4.76,"outcome":"inactive"}
{"target gene":"CG10055 (GeneID 40862)","DRSC id":"DRSC12503","infection score, replicate 1":3.35,"outcome":"inactive"}
{"target gene":"mRpS23 (GeneID 318977)","DRSC id":"DRSC01348","infection score, replicate 1":3.57,"outcome":"inactive"}

In a second layout: entries from further up.
CG12164 (GeneID 35651) [DRSC25698]
- infection score, replicate 1: 9.8
- outcome: inactive

Trim9 (GeneID 34453) [DRSC02242]
- infection score, replicate 1: 16.1
- outcome: inactive
